Experimental data as given in patent publication US6767895B2 (priority 2000, dated 2004).

Tested on: motor nerve of a cutaneus pectoris muscle of frog
Test: Skeletal neuromuscular junction: extracellular recording, frog cutaneus pectoris muscle with motor nerve stimulation
Details: peptide 1 μM; motor nerve electrically stimulated every minute

Xaa2-Cys-Lys-Thr-Asn-Lys-Met-Ser-Cys-Ser-Leu-His-Xaa1-Xaa1-Cys-Cys-Arg-Phe-Arg-Cys-Cys-Phe-His-Gly-Lys-Cys-Gln-Thr-Ser-Val-Phe-Gly-Cys-Xaa4-Val-Asp-Xaa3
effect on motor nerve / neuromuscular junction (extracellular recording): produces repetitive action potentials in motor nerve
